± gives the standard deviation. This is a selection; strong and weak results do not stand in their true shares.

This experiment deals with OVCAR-3-derived ovarian cancer stem-like cells (spheroids). In words: cell growth relative to untreated control; higher = more growth (less inhibition). To be noted: 2.29 µM; 96 h. The essentials:
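Stem-like cells derived from OVCAR-3 spheroids were dissociated with trypsin and seeded at 50,000 cells/mL in stem cell medium in ultra-low attachment 96-well plates, then preincubated for 24 h. Each compound was added at 2.29 uM to 4 replicate wells and left for 96 h at 37°C, 5% CO2. Viability came from TOX8 resazurin fluorescence (ex 560/em 590 nm) read after 4 h. Percent growth was expressed relative to untreated wells, after blank subtraction and removal of outliers by the Grubbs test.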
For `CC1=C[C@H]2O[C@@H]3CC4OC(=O)/C=C\C=C\C(C(C)O)OCC(O)C(C)CC(=O)OC[C@@]2(C[C@@H]1O)[C@]4(C)[C@@]31CO1` (some centres undefined), the cell growth is 11.9 ± 8.4%.
`c1ccc2c(NCCCCCCCCNc3c4ccccc4nc4ccccc34)c3ccccc3nc2c1` returned a cell growth of 4.2 ± 2%.
To `Fc1ccc(SC(CCl)CCl)cc1` belongs 94.4 ± 9.4%.
The compound `O=NN(CCSCCCl)C(=O)NC1CCCCC1` yielded a cell growth of 111 ± 57%.

These data come from the supplement of paper PMC3484114.
